# Test results reported in US20230391838A1 (priority 2020, published 2023).
# By UniProt entry, the sequences of proteins in these tests, tags left out. Where a name states a change or a piece, a line headed by the entry shows the natural chain unless it says otherwise.
# UniProt P36544: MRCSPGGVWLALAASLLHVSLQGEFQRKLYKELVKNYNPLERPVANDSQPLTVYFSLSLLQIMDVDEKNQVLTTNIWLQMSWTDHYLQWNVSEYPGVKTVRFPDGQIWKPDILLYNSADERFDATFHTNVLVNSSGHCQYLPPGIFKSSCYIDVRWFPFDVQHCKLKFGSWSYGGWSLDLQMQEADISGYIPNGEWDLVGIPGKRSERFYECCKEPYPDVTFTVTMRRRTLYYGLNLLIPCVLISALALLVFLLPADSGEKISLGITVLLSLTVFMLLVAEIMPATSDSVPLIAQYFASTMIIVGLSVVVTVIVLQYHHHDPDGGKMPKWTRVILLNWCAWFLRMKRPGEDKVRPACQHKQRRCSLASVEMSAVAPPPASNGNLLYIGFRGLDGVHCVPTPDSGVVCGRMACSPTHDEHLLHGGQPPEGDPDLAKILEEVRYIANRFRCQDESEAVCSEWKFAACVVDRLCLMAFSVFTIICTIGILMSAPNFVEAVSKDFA
# Target: α7 nAChR (Homo sapiens, UniProt P36544)
# Test: α7
# Conditions: read-out: α7
sequence,measurement,value
G C^I C^II T D P R C^III (Cit) (iY) Q C^IV Y,IC50,> 10 µM
